{"source": "patent US20230285545A1", "target": "Human ACE2-Fc (human) (UniProt Q9BYF1)"}
{"substance": "recombinant receptor-binding domain (RBD) protein of SARS-CoV-2 spike protein (ligand)", "values": [{"measurement": "koff", "result": 0.0205, "unit": "s⁻¹"}, {"measurement": "kon", "result": "1.33e+07", "unit": "M⁻¹ s⁻¹"}]}
